PubChem BioAssay AID624099, ICCB-Longwood, 2012
The deposit covers about 21,000 reagents; below is a part drawn at random. 497 of all reagents (2.4%) count as active. 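Higher z means weaker E2 silencing; only reporter increases were scored, and knock-downs that hurt cell survival may mask genuine repressor factors.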 A number with no mark means an inactive call. No sequences are given here.

Screen: 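Host factors E2 relies on to silence an HPV18 LCR reporter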 (primary screen)
Cells: human C33A cervical carcinoma cells (HPV-negative) stably expressing BPV1 E2 and an HPV18 LCR luciferase reporter
Reagents: siRNA pool against human genes, 40 nM
Timing: 72 h
Measured: 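Per-well luciferase luminescence, z-scored on each plate against the plate mean and SD with control wells left out, then averaged across three replicate plates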
Reading the numbers: mean z-score and z-score: higher = stronger reporter signal, weaker E2 silencing
Active means: 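Hit if mean z-score reaches 2 and two or more of three replicate z-scores also reach 2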

no.	target gene	mean z-score	z-score, replicate A	z-score, replicate B	z-score, replicate C
1	MDH1 (GeneID 4190)	0.37	0.07	0.67	0.38
2	SELENOV (GeneID 348303)	0.41	0.46	0.25	0.51
3	LTV1 (GeneID 84946)	-0.38	-0.27	-0.48	-0.41
4	DUSP18 (GeneID 150290)	-0.07	-0.02	-0.38	0.19
5	KYAT3 (GeneID 56267)	-0.37	-0.58	0	-0.52
6	SNRNP25 (GeneID 79622)	-0.67	-0.54	-0.72	-0.77
7	MAD2L1BP (GeneID 9587)	-0.12	0.02	-0.33	-0.05
8	LOC387765 (retired record) (GeneID 387765)	-1.15	-1.23	-1.16	-1.05
9	PRAMEF15 (GeneID 653619)	-0.63	-0.43	-0.97	-0.5
10	SUSD2 (GeneID 56241)	0.44	0.39	0.5	0.44
11	SELENOS (GeneID 55829)	-0.05	-0.45	0.17	0.13
12	SCLT1 (GeneID 132320)	-0.61	-0.56	-0.54	-0.74
13	LOC391509 (retired record) (GeneID 391509)	0.99	0.5	1.28	1.19
14	RGR (GeneID 5995)	1.54	2.09	1.23	1.29
15	MEST (GeneID 4232)	1.11	0.14	0.67	2.52
16	ZC3H12A (GeneID 80149)	-0.1	0.29	-0.38	-0.23
17	UGT2B4 (GeneID 7363)	0.16	0.19	0.18	0.11
18	SART1 (GeneID 9092)	0.15	-0.08	0.28	0.24
19	ELOA (GeneID 6924)	-1.08	-1.17	-1.21	-0.85
20	FMO2 (GeneID 2327)	-0.73	-0.82	-0.62	-0.75
21	CDC42EP4 (GeneID 23580)	0.51	0.38	0.48	0.68

Only “mean z-score” (2 entries from above):
UGT2B4 (GeneID 7363) = 0.16
SART1 (GeneID 9092) = 0.15

The results go on.
no.	target gene	mean z-score	z-score, replicate A	z-score, replicate B	z-score, replicate C
22	HBB (GeneID 3043)	0.19	0.12	0.18	0.28
23	ABCB1 (GeneID 5243)	-0.25	-0.39	0.03	-0.4
24	PPIE (GeneID 10450)	1.04	1.07	1.01	1.04
25	TNIP1 (GeneID 10318)	1.53	1.71	1.53	1.35
26	NHERF4 (GeneID 79849)	-0.13	0.25	-0.03	-0.59
27	REEP4 (GeneID 80346)	0.81	0.4	1.15	0.87
28	PNLIP (GeneID 5406)	-1.14	-1.34	-0.83	-1.26
29	PCDHGB5 (GeneID 56101)	1.13	0.92	1.53	0.96
30	TEX101 (GeneID 83639)	1.02	0.9	1.01	1.16
31	ZBTB49 (GeneID 166793)	-0.31	-0.75	-0.34	0.16
32	DGKB (GeneID 1607)	1.87	2.3	1.7	1.6
33	SEMA3F (GeneID 6405)	0.34	0.26	0.74	0.03
34	ZYX (GeneID 7791)	-0.2	-0.52	-0.1	0.01
35	GPATCH3 (GeneID 63906)	0.04	0.21	-0.2	0.1
36	MIR29B2CHG (GeneID 100128537)	-1.1	-1.24	-1.3	-0.76
37	SLC9A3-OT1 (GeneID 25845)	-0.01	0.06	-0.11	0.01
38	CLEC2B (GeneID 9976)	0.42	0.71	0.47	0.08
39	CDH7 (GeneID 1005)	-0.1	-0.18	0	-0.12
